Reference: US20100256070

Experiments:
[1] = molecular target: human eukaryotic elongation factor 2 (eEF2) from 293T cell lysate, P13639
[2] = molecular target: eEF2 from wild type CHO cells (CHO-K1), P09445
[3] = molecular target: mutant eEF2 from the DT-resistant CHO line Re1.22C, P09445

B1: purified ADPRT domain of VCE (protein)
chain: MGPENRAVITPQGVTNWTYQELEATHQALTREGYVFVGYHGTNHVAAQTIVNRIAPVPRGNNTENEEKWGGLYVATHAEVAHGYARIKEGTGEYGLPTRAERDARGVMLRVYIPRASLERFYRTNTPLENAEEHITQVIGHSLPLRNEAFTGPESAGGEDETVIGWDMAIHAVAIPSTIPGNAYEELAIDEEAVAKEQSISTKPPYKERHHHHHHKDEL
ADP-ribosylation with biotin-NAD (immunoblot) [1]: VCE modified eEF2 from wild type CHO cells and 293T cells | ADP-ribosylation with biotin-NAD (immunoblot) [2]: VCE modified eEF2 from wild type CHO cells and 293T cells | ADP-ribosylation with biotin-NAD (immunoblot) [3]: VCE failed to modified eEF2 from Re1.22C
